According to PMC10537738, “Antiviral Effect of 5′-Arylchalcogeno-3-aminothymidine Derivatives in SARS-CoV-2 Infection” (Molecules, 2023):
Read-outs that look alike come from different tables or passages of the source.

How the values were obtained:
[1] = system: SARS-CoV-2; experiment: SARS-CoV-2 replication inhibition in Vero E6 cells (PFU titration); details: Vero E6, ratio of CC50 and EC50, 24 hpi
[2] = system: SARS-CoV-2; format: cell-based; details: for SI 24 h: Calu-3, ratio of CC50 and EC50, 24 hpi; for SI 48 h: Calu-3, ratio of CC50 and EC50, 48 hpi

Compound	SI 24 h [1]	SI 24 h [2]	SI 48 h [2]
Cc1cn([C@H]2C[C@H](N)[C@@H](C[Se]c3ccccc3)O2)c(=O)[nH]c1=O [R3a]	88.9	31.4	54.5
Cc1ccc([Se]C[C@H]2O[C@@H](n3cc(C)c(=O)[nH]c3=O)C[C@@H]2N)cc1 [R3b]	67.3	52.4	150
COc1ccc([Se]C[C@H]2O[C@@H](n3cc(C)c(=O)[nH]c3=O)C[C@@H]2N)cc1 [R3c]	60.4	–	58.3
Cc1cn([C@H]2C[C@H](N)[C@@H](C[Se]c3ccc(Cl)cc3)O2)c(=O)[nH]c1=O [R3d]	80.3	24.1	92.2
Cc1cn([C@H]2C[C@H](N)[C@@H](C[Se]c3cccc4ccccc34)O2)c(=O)[nH]c1=O [R3e]	101	81.4	67.7
Cc1cn([C@H]2C[C@H](N)[C@@H](C[Te]c3ccccc3)O2)c(=O)[nH]c1=O [R3f]	19.5	23.2	9.18
Cc1ccc([Te]C[C@H]2O[C@@H](n3cc(C)c(=O)[nH]c3=O)C[C@@H]2N)cc1 [R3n]	9.84	58.2	26.7
COc1ccc([Te]C[C@H]2O[C@@H](n3cc(C)c(=O)[nH]c3=O)C[C@@H]2N)cc1 [R3o]	8.06	4.97	15.5
Cc1cn([C@H]2C[C@H](N)[C@@H](C[Te]c3ccc(Cl)cc3)O2)c(=O)[nH]c1=O [R3p]	10.2	8.14	2.78
Cc1cn([C@H]2C[C@H](N)[C@@H](C[Te]c3cccc4ccccc34)O2)c(=O)[nH]c1=O [R3q]	7.98	16.9	39.8
